Compound potency records, mixed from different reports. Data source: NIAID ChemDB in PubChem.

Shared fields: target-level tests; species: HIV-1; target: Protease

Blank or dashed fields: not listed here.

structure | read-out | setting | read by | strain | result
O=S1(=O)N(Cc2ccccc2)C[C@H](O)[C@@H](O)CN1Cc1ccccc1CCc1ccccc1 | Ki |  | fluorescence |  | >20 µM
CC[C@H](C)[C@H](NC(=O)[C@@H]1CCCN1C(=O)[C@@H](O)[C@H](Cc1ccccc1)NC(=O)[C@H](CC(N)=O)NC(=O)CCc1ccccc1)C(=O)N[C@H](C(N)=O)C(C)C | IC50 |  |  |  | 0.468 µM
CC(C)[C@H](NC(=O)OCc1ccccc1)C(=O)N[C@@H](Cc1ccccc1)[C@@H](O)[C@@H](NCc1ccc(Br)cc1)C(=O)N[C@H](C(=O)NCc1nc2ccccc2[nH]1)C(C)C | Ki |  | substrate cleavage |  | 0.008 µM
CC[C@H](C)[C@H](NC(=O)[C@@H]1CCCN1C(=O)[C@H](O)[C@H](CC1CCCCC1)NC(=O)[C@H](CC(N)=O)NC(=O)CCc1ccccc1)C(=O)N[C@H](C(N)=O)C(C)C | IC50 |  |  |  | >10 µM
CC(C)=CCc1c(O)c(CC=C(C)C)c2occ(-c3ccc(O)cc3)c(=O)c2c1O | IC50 |  | HPLC |  | 0.5 µM
CCOC(=O)c1cn(CC(O)CNc2cccc(N)c2)cc1-c1ccccc1 | IC50 |  |  |  | >200 µM
O=S1(=O)N(Cc2ccccc2CCc2ccccc2)C[C@H](O)[C@@H](O)CN1Cc1ccccc1Cc1ccccc1 | Ki |  | fluorescence |  | 7.5 µM
CC[C@H](C)[C@H](NC(=O)[C@@H]1CCCN1C(=O)[C@H](O)[C@H](Cc1ccccc1)NC(=O)[C@H](CC(=O)O)NC(=O)[C@H](Cc1ccccc1)NC(=O)[C@@H](N)CO)C(=O)N[C@H](C(N)=O)C(C)C | IC50 |  |  |  | 0.1 µM
COc1ccccc1/C(=N\O)C(=O)C(Br)(Br)Br | Ki |  |  |  | 2.1 µM
COc1c(O)cc(O)c2c1OC(c1ccccc1)CC2=O | IC50 |  | substrate cleavage / fluorescence |  | 400 µg/mL
CC(=O)N1C2C3C4N(C(C)=O)C5C(C1C5(CO)[C@H]3c1ccccc1)[C@@H](c1ccccc1)C24CO | Ki |  |  |  | 0.13 µM
CC(C)(C)NC(=O)c1ccccc1NCC(O)Cn1cc(C(=O)NC(C)(C)C)c(-c2ccccc2)c1 | IC50 |  |  |  | 161 µM
CC(C)[C@H](NC(=O)c1cc(=O)c2ccccc2[nH]1)C(=O)N[C@@H](Cc1ccccc1)[C@H](O)[C@@H](O)[C@H](Cc1ccccc1)NC(=O)c1cc(=O)c2ccccc2[nH]1 | IC50 |  | substrate cleavage |  | 4 µM
CC[C@H](C)[C@H](NC(=O)[C@@H]1CCCN1C(=O)[C@H](O)[C@H](Cc1ccccc1)NC(=O)[C@H](CO)NC(=O)Cc1ccccc1)C(=O)N[C@H](C(N)=O)C(C)C | IC50 |  |  |  | >10 µM
O=C(N[C@@H](Cc1ccccc1)C(=O)NC(CO)NC(=O)[C@H](Cc1ccccc1)NC(=O)OCc1ccccc1)OCc1ccccc1 | IC50 |  | substrate cleavage |  | 5.2 µM
CC(C)[C@H](NC(=O)C(CN)Cc1ccccc1)C(=O)N[C@@H](Cc1ccccc1)[C@@H](O)[C@H](O)[C@H](Cc1ccccc1)NC(=O)[C@@H](NC(=O)C(CN)Cc1ccccc1)C(C)C | IC50 |  | HPLC | D34 | 0.00025 µM
CC(=O)N[C@@H](Cc1ccccc1)C(=O)N[C@@H](CCC(=O)O)C(=O)N[C@@H](Cc1ccccc1)[C@@H](O)[C@H](O)[C@H](Cc1ccccc1)NC(=O)COC(C)(C)C | IC50 |  | substrate cleavage |  | 0.6 µM
CCCCCCCCCCS(=O)(=O)CCC(=O)N[C@H](C(=O)N[C@@H](Cc1ccccc1)[C@@H](O)[C@H](O)[C@H](Cc1ccccc1)NC(=O)[C@@H](NC(=O)CCS(=O)(=O)CCCCCCCCCC)C(C)C)C(C)C | IC50 |  | HPLC | D34 | >10 µM
O=S1(=O)N(Cc2ccccc2)C[C@H](O)[C@@H](O)CN1Cc1ccccc1Cc1ccccc1 | Ki |  | fluorescence |  | >20 µM
CC1(C)C=Cc2c(cc3occ(-c4ccc(O)cc4)c(=O)c3c2O)O1 | IC50 |  | HPLC |  | 30.1 µM
CC(=O)N[C@@H](Cc1ccccc1)C(=O)N[C@@H](CCC(=O)O)C(=O)N[C@@H](Cc1ccccc1)[C@H](O)[C@@H](O)[C@H](Cc1ccccc1)NC(=O)[C@@H](NC(=O)[C@H](Cc1c[nH]c2ccccc12)NC(C)=O)C(C)C | IC50 |  | substrate cleavage |  | 0.009 µM
CC(C)[C@H](NC(=O)[C@H](Cc1cccc2ccccc12)CS(=O)(=O)C(C)(C)C)C(=O)N[C@@H](Cc1ccccc1)[C@H](N)[C@H](O)[C@H](Cc1ccccc1)NC(=O)[C@@H](NC(=O)[C@H](Cc1cccc2ccccc12)CS(=O)(=O)C(C)(C)C)C(C)C | IC50 |  | HPLC | D34 | 0.0021 µM
CC(C)[C@H](NC(=O)[C@H](CCCN=C(N)N)NC(=O)N[C@@H](Cc1ccccc1)C(=O)O)C(=O)N[C@@H](C=O)Cc1ccccc1 | IC50 |  | HPLC |  | 18.3 µM
CC(C)C[C@H](NC(=O)[C@@H](NC(=O)CCCCCNC(=O)[C@H](Cc1ccccc1)NC(=O)[C@H](CCC(=O)O)NC(=O)[C@H](Cc1ccccc1)NC[C@H](Cc1ccccc1)NC(=O)OC(C)(C)C)[C@@H](C)O)C(=O)N[C@@H](CC(N)=O)C(=O)N[C@@H](Cc1ccccc1)C(=O)O | IC50 | pH 5.0 | fluorescence |  | 0.021 µM
CC[C@@H](C)[C@H](NC(=O)[C@@H]1CCCN1C(=O)[C@@H](O)[C@H](Cc1ccccc1)NC(=O)[C@H](CC(N)=O)NC(=O)COc1ccccc1)C(=O)N[C@H](C(N)=O)C(C)C | IC50 |  |  |  | <5 µM
CCC(C)[C@@H]1NC(=O)C(NCC(O)[C@@H]2Cc3ccc(cc3)OCCCCC(=O)N[C@@H](C(C)C)C(=O)N2)Cc2ccc(cc2)OCCCNC1=O | Ki |  | substrate cleavage |  | 0.003 µM
CC(C)(C)NC(=O)c1ccccc1C[C@@H](O)[C@H](Cc1ccccc1)NC(=O)[C@H](CC(N)=O)C(N)C(=O)c1cc(=O)c2ccccc2[nH]1 | IC50 |  | fluorescence |  | 0.0024 µg/mL
O=C(N[C@@H](Cc1ccccc1)[C@@H](O)[C@H](O)[C@H](Cc1ccccc1)NC(=O)c1cc(=O)c2ccccc2[nH]1)c1cc(=O)c2ccccc2[nH]1 | IC50 |  | substrate cleavage |  | 10 µM
CC(C)(C)OC(=O)N[C@H](CN[C@@H](Cc1ccccc1)C(=O)N[C@@H](CCC(=O)O)C(=O)N[C@@H](Cc1ccccc1)C(N)=O)Cc1ccccc1 | IC50 | pH 5.0 | fluorescence |  | 0.012 µM
COc1ccc(C[C@H](C[C@H](O)[C@H](Cc2ccccc2)NC(=O)OC(C)(C)C)C(=O)N[C@H](C(=O)N[C@@H](Cc2ccccc2)C(=O)N2CCOCC2)C(C)C)cc1 | IC50 |  | fluorescence |  | 0.011 µM
CC[C@H](C)[C@H](NC(=O)[C@@H]1CCCN1C(=O)[C@@H](O)[C@H](Cc1ccccc1)NC(=O)[C@H](CO)NC(=O)Cc1ccccc1)C(=O)N[C@H](C(N)=O)C(C)C | IC50 |  |  |  | 5.041 µM
C=C(C)C(O)Cc1c(O)c(CC=C(C)C)c2occ(-c3ccc(O)cc3O)c(=O)c2c1O | IC50 |  | HPLC |  | 4.5 µM
CC(C)(C)NC(=O)c1ccccc1C[C@@H](O)[C@H](Cc1ccccc1)NC(=O)[C@H](CO)NC(=O)OCc1ccccc1 | IC50 |  | fluorescence |  | 0.008 µg/mL
CC(C)(C)OC(=O)N[C@@H](Cc1ccccc1)C(=O)NC(CO)NC(=O)[C@H](Cc1ccccc1)NC(=O)OC(C)(C)C | IC50 |  | substrate cleavage |  | 8.8 µM
CSC(C)(C)[C@H](NC(=O)COc1cccc2ccccc12)C(=O)N[C@@H](Cc1ccccc1)[C@H](O)C(=O)N1CSC[C@H]1C(=O)NC(C)(C)C | IC50 |  |  |  | <0.05 µM
CC[C@H](C)[C@H](NC(=O)[C@@H]1CCCN1C(=O)[C@H](O)[C@H](Cc1ccccc1)NC(=O)[C@H](CO)NC(=O)CCc1ccccc1)C(=O)N[C@H](C(N)=O)C(C)C | IC50 |  |  |  | >10 µM
CC(C)[C@H](NC(=O)COc1cccc2cnccc12)C(=O)N[C@@H](Cc1ccccc1)[C@H](O)C(=O)N1CCC[C@H]1C(=O)NC(C)(C)C | IC50 |  |  |  | <0.05 µM
CCOC(=O)c1cn(CC(O)CSc2ccccc2C(=O)NC(C)(C)C)cc1-c1ccccc1 | IC50 |  |  |  | >200 µM
CC(C)(C)OC(=O)N[C@@H](Cc1ccccc1)C(=O)NC(CCO)NC(=O)[C@@H](Cc1ccccc1)NC(=O)OC(C)(C)C | IC50 |  | substrate cleavage |  | >10 µM
CCOC(=O)c1cn(CC(O)CSc2ccccc2)cc1-c1ccccc1 | IC50 |  |  |  | >200 µM
CC(C)[C@H](NC(=O)[C@H](Cc1cc[n+]([O-])cc1)CS(=O)(=O)C(C)(C)C)C(=O)N[C@@H](Cc1ccccc1)[C@@H](O)[C@H](O)[C@H](Cc1ccccc1)NC(=O)[C@@H](NC(=O)[C@H](Cc1cc[n+]([O-])cc1)CS(=O)(=O)C(C)(C)C)C(C)C | IC50 |  | HPLC | D34 | 0.007 µM
CC(C)C(NC(=O)C(NC1CCCN1C(=O)[C@H](Cc1ccccc1)N1CCC([C@H](C)NC(=O)C(N)CO)=CCC1=O)C(C)C)C(N)=O | Ki |  |  |  | >2000 µM
O=C(N[C@@H](Cc1ccccc1)C(=O)NC(CO)NC(=O)[C@@H](Cc1ccccc1)NC(=O)OCC1c2ccccc2-c2ccccc21)OCC1c2ccccc2-c2ccccc21 | IC50 |  | substrate cleavage |  | >10 µM
CCOC(=O)c1cn(CC(O)CNc2cccc(Cl)c2)cc1-c1ccccc1 | IC50 |  |  |  | >200 µM
CS(=O)(=O)C[C@H](NC(=O)COc1cccc2ccccc12)C(=O)N[C@@H](Cc1ccccc1)[C@H](O)C(=O)N1CSC[C@H]1C(=O)N[C@H](C(N)=O)c1ccccc1 | IC50 |  |  |  | >0.05 µM
CC(=O)N[C@@H](Cc1c[nH]c2ccccc12)C(=O)N[C@@H](CO)C(=O)N[C@@H](Cc1ccccc1)[C@H](O)[C@@H](O)[C@H](Cc1ccccc1)NC(=O)c1cc(=O)c2ccccc2[nH]1 | IC50 |  | substrate cleavage |  | 4 µM
CC(C)(C)NC(=O)c1ccccc1C[C@@H](O)[C@H](CC1CCCCC1)NC(=O)[C@H](CC(N)=O)NC(=O)c1ccc2cccc(F)c2n1 | IC50 |  | fluorescence |  | 0.0029 µg/mL
CC(C)=CCc1c2c(c(O)c3c(=O)c(-c4ccc(O)cc4O)coc13)C=CC(C)(C)O2 | IC50 |  | HPLC |  | 3.5 µM
CC[C@H](C)[C@H](NC(=O)[C@@H]1CCCN1C(=O)[C@@H](O)[C@H](Cc1ccccc1)NC(=O)[C@H](CO)NC(=O)CCc1ccccc1)C(=O)N[C@H](C(N)=O)C(C)C | IC50 |  |  |  | 1.594 µM
C[C@@H]1CC[C@]2(C(=O)O[C@@H]3O[C@H](CO)[C@@H](O)[C@H](O)[C@H]3O)CC[C@@H]3C(=CC[C@H]4[C@@]3(C)CC[C@H]3C(C)(C)[C@H](O)[C@H](O)C[C@]43C)[C@@H]2[C@]1(C)O | IC50 |  | HPLC |  | >100 µM
CCOC(=O)c1cccn1CC(O)CNc1ccccc1 | IC50 |  |  |  | >200 µM
CCC(C)[C@H](NC(=O)C(Cc1ccccc1)NCC(=O)[C@H](Cc1ccccc1)NC(=O)[C@@H](NC(=O)C(CC(C)C)NC(C)=O)C(C)C)C(=O)N[C@H](C(N)=O)C(C)C | Ki |  | substrate cleavage |  | 60 µM
C=CC[C@H](NC(=O)COc1cccc2ccccc12)C(=O)N[C@@H](Cc1ccccc1)[C@H](O)C(=O)N1CSC[C@H]1C(=O)NC(C)(C)C | IC50 |  |  |  | <0.05 µM
C[C@@H]1CC[C@]2(C(=O)O[C@@H]3O[C@H](CO)[C@@H](O)[C@H](O)[C@H]3O)CC[C@]3(C)C(=CC[C@@H]4[C@@]5(C)C[C@@H](O)[C@H](O)C(C)(C)[C@@H]5CC[C@]43C)[C@@H]2[C@]1(C)O | IC50 |  | HPLC |  | 100 µM

Again, the opening 4 rows:

structure | read-out | setting | read by | strain | result
O=S1(=O)N(Cc2ccccc2)C[C@H](O)[C@@H](O)CN1Cc1ccccc1CCc1ccccc1 | Ki |  | fluorescence |  | >20 µM
CC[C@H](C)[C@H](NC(=O)[C@@H]1CCCN1C(=O)[C@@H](O)[C@H](Cc1ccccc1)NC(=O)[C@H](CC(N)=O)NC(=O)CCc1ccccc1)C(=O)N[C@H](C(N)=O)C(C)C | IC50 |  |  |  | 0.468 µM
CC(C)[C@H](NC(=O)OCc1ccccc1)C(=O)N[C@@H](Cc1ccccc1)[C@@H](O)[C@@H](NCc1ccc(Br)cc1)C(=O)N[C@H](C(=O)NCc1nc2ccccc2[nH]1)C(C)C | Ki |  | substrate cleavage |  | 0.008 µM
CC[C@H](C)[C@H](NC(=O)[C@@H]1CCCN1C(=O)[C@H](O)[C@H](CC1CCCCC1)NC(=O)[C@H](CC(N)=O)NC(=O)CCc1ccccc1)C(=O)N[C@H](C(N)=O)C(C)C | IC50 |  |  |  | >10 µM

Neighbouring rows are from separate reports. ICn is the concentration giving n% inhibition.